Values quoted from earlier work as cited in patent US20120149888A1, “SYNTHESIS OF ARA-2'-O-METHYL-NUCLEOSIDES, CORRESPONDING PHOSPHORAMIDITES AND OLIGONUCLEOTIDES INCORPORATING NOVEL MODIFICATIONS FOR BIOLOGICAL APPLICATION IN THERAPEUCTICS, DIAGNOSTICS, G- TETRAD FORMING OLIGONUCLEOTIDES AND APTAMERS” (priority 2009, published 2012).

Tests used:
[1] = test system: L1210 TG/R; conditions: Thioguanine-resistant L1210 TG/R
[2] = test system: P815-E176; conditions: 5-Fluorouracil-resistant P815-E176

Q: Which “Response to chemotherapeutic drugs: collaterally sensitive” value [1] does the source give for “6-hydroxy-9-{3-[bis(2″-chloroethyl)amino}purine” here?
A: The value was “No. 30020”.

Q: What about the “Response to chemotherapeutic drugs: collaterally sensitive” value [2] of the same substance?
A: Its value is “No. 30020”.
